According to paper PMC11742315, “Identification of a staphylococcal dipeptidase involved in the production of human body odor” (The Journal of Biological Chemistry, 2024):

System: CCCC(C)(CCO)SC[C@H](N)C(=O)NCC(=O)O
Test: purified protein
Settings: Mn2+-bound enzyme; 0.1 M Tris-HCl (pH 80 [sic]); coupled with ShPatB

Question: ShPepV (Staphylococcus hominis; A174V) was tested. Which Km did it give?
Answer: 1580 ± 140 µM

Question: What about the kcat of the same substance?
Answer: 2.3 s⁻¹

Question: And the kcat/Km?
Answer: 1460 M⁻¹ s⁻¹

Question: ShPepV (Staphylococcus hominis; D437A) was tested. Which Km did it give?
Answer: 370 ± 30 µM

Question: What about the kcat of the same substance?
Answer: 5.79 s⁻¹

Question: And the kcat/Km?
Answer: 15700 M⁻¹ s⁻¹

Question: Which results are given for ShPepV (Staphylococcus hominis; E175A)?
Answer: Km: 850 ± 110 µM; kcat: 4.73 s⁻¹; kcat/Km: 5590 M⁻¹ s⁻¹

Question: For ShPepV (Staphylococcus hominis; I413W), which Km is on record?
Answer: 7790 ± 670 µM

Question: What about the kcat of the same substance?
Answer: 3.01 s⁻¹

Question: And the kcat/Km?
Answer: 390 M⁻¹ s⁻¹

Question: What does the source list for ShPepV (Staphylococcus hominis; M271R)?
Answer: Km: 2310 ± 80 µM; kcat: 2.96 s⁻¹; kcat/Km: 1280 M⁻¹ s⁻¹

Question: ShPepV (Staphylococcus hominis; M439A) was tested. Which Km did it give?
Answer: 700 ± 10 µM

Question: And the kcat?
Answer: 4.71 s⁻¹

Question: And the kcat/Km?
Answer: 6770 M⁻¹ s⁻¹
